Measurements as given in PMC6877725, “Identification of the periplasmic DNA receptor for natural transformation of Helicobacter pylori”.
For some assays here: The comparison behind a weaker result is the experiment's own reference, which may not be listed here. For some assays here: Where a protein sequence is shown, tags need not be part of it. For some assays here: For at least one entry, the source does not settle the construct or the ends of the probe. For some assays here: Negatives hold for the conditions tested. For some assays here: At least one verdict was read from the data and is not stated in words by the source.

How the values were obtained:
[1] = tested on: MBP-ComH (Helicobacter pylori 26695); test: EMSA; conditions: EMSA: 10 mM Tris-HCl pH 7.5, 50 mM KCl, ~100 mM NaCl, 0.1 mM MgCl2, 1 mM DTT, 0.1 µg/µl BSA, on ice 30 min, recombinant protein, residues 20-479, protein details: N-terminal MBP
[2] = tested on: MBP-ComH-CTD (Helicobacter pylori 26695); test: EMSA; conditions: EMSA: 10 mM Tris-HCl pH 7.5, 50 mM KCl, ~100 mM NaCl, 0.1 mM MgCl2, 1 mM DTT, 0.1 µg/µl BSA, on ice 30 min; recombinant protein; residues 170-479; protein details: N-terminal MBP; label: 5'-Cy5 on strand 1
[3] = tested on: MBP-ComH-NTD (Helicobacter pylori 26695); test: EMSA; conditions: negligible affinity; EMSA: 10 mM Tris-HCl pH 7.5, 50 mM KCl, ~100 mM NaCl, 0.1 mM MgCl2, 1 mM DTT, 0.1 µg/µl BSA, on ice 30 min; recombinant protein; residues 20-169; protein details: N-terminal MBP; label: 5'-Cy5 on strand 1
[4] = target: T1, ComH-His6 (Helicobacter pylori 26695) (UniProt O26055); test: SPR; conditions: residual binding; SPR: PBS + 0.005% Tween20, 25 °C; recombinant protein; protein details: C-terminal His6; label: 5'-biotin; single-stranded DNA
T1 sequence (looked up, limits assumed): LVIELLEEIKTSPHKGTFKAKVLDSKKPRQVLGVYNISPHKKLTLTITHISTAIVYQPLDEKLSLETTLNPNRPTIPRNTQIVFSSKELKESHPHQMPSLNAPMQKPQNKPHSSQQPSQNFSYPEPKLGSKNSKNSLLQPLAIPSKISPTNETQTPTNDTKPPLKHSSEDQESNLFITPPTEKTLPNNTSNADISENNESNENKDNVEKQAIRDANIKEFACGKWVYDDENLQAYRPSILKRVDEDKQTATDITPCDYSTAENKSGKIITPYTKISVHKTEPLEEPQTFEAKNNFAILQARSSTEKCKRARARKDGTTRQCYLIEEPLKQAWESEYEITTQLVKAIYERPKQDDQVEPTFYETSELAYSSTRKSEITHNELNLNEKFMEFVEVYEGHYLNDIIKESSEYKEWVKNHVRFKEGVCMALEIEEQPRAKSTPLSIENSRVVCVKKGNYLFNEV

## TAGCATCGATCAGTCCTC (double strand) [18 bp dsDNA (Cy5-PNK1 + cPNK1)]
[1]; label: 5'-Cy5 on strand 1
  binding result: binds
[2]
  binding result: binds
[3]
  binding result: no binding

## TGACTAACGATGCTAGACCTCGAGGACTGATCGATGCTA (double strand) [39 bp dsDNA (Cy5-PNK3 + cPNK3)]
[1]; 200 nM protein, stable up to 600 mM NaCl or KCl, label: Cy5 on strand 1
  binding result: binds

## TAGCATCGATCAGTCCTC [18-mer ssDNA (Cy5-PNK1)]
[1]; label: 5'-Cy5, single-stranded DNA
  binding result: no binding

## TAGCATCGATCAGTCCTC / TGACTAACGATGCTAGACCTCGAGGACTGATCGATGCTA [5'-overhang DNA (Cy5-PNK1 + PNK3)]
[1]; label: 5'-Cy5 on strand 1
  binding result: binds

## TAGCATCGATCAGTCCTC / GAGGTCTAGCATCGTTAGTCA / TGACTAACGATGCTAGACCTCGAGGACTGATCGATGCTA [Nicked DNA (Cy5-PNK1 + PNK2-TAMRA + PNK3)]
[1]
  binding result: binds

## GTAGTGCTGTAGGAGAATATACGGGCTGCTCGTGTTGACAAGTACTGATG [50-mer ssDNA (Op249)]
[4]
  binding result: binds more weakly
